A mixed list of measured activities; the numbers were collected in NIAID ChemDB.

Shared fields: toxicity to cultured cells; cells: MT-4; measure: CC50

CCn: concentration that lowers growth or viability of the cells by n%. Lines come from different laboratories, so protocols vary.

CC(CC(F)(F)F)S(=O)(=O)c1c(C(N)=O)[nH]c2ccc(Cl)cc12 ; read by: microscopy ; result: >10 µM
O=C1NCc2c1ccnc2-c1cc(-c2cc(F)cc(Cl)c2)n(-c2cccnc2)n1 ; read by: resazurin ; result: >3.3 µM
COC(=O)[C@H](Cc1ccccc1)NP(=O)(OC[C@H]1C=C[C@@H](n2ccc3c(N)ncnc32)C1)Oc1ccccc1 ; read by: MTS ; result: 31.5 µM
O=C1NCc2c1cccc2-c1cc(-c2cc(Br)cc(OC(F)F)c2)n(-c2cccnc2)n1 ; read by: resazurin ; result: >3.3 µM
CC1(C)NCCCn2c1nc(C(=O)NCc1ccc(F)cc1)c(O)c2=O ; read by: microscopy ; result: >1 µM
O=C1NCc2c1cccc2-c1cc(-c2cc(F)cc(OC(F)(F)F)c2)n(-c2cccnc2)n1 ; read by: resazurin ; result: >3.3 µM
C[C@H](NP(=O)(OC[C@H]1C=C[C@@H](n2ccc3c(N)ncnc32)C1)Oc1ccccc1)C(=O)OCc1ccccc1 ; read by: MTS ; result: >10 µM
C=C1CN(S(C)(=O)=O)CCCN(Cc2ccccc2)CCCN(S(C)(=O)=O)C1 ; read by: trypan blue / propidium iodide ; result: >75 µM
CC(=O)N1CCn2c(nc(C(=O)NCc3ccc(F)cc3)c(O)c2=O)C1 ; read by: microscopy ; result: >1 µM
O=C1NCc2c1ccnc2-c1cc(-c2cc(Br)cc(OC(F)F)c2)n(-c2ccnc(Cl)c2)n1 ; read by: resazurin ; result: >3.3 µM
Cc1ccc(CNC(=O)c2nc3n(c(=O)c2O)CCN(C)CC3N(C)C(=O)C(=O)N(C)C)cc1Cl ; read by: microscopy ; result: >1 µM
COC(=O)C(C)(C)NP(=O)(OC[C@@H]1C=C[C@H](n2ccc3c(N)ncnc32)C1)Oc1ccccc1 ; read by: MTS ; result: 490 µM
CC(C)(C)OC(C(=O)O)c1c(-c2ccc3c(c2)CCCO3)ccc2ncccc12 ; read by: ATP ; result: >50 µM
C=C1CN(S(=O)(=O)c2ccc(C)cc2)CCCN(CC2CC2)CCCN(S(=O)(=O)c2ccc(C)cc2)C1 ; read by: trypan blue / propidium iodide ; result: 36.1 µM
CC1(C)c2nc(C(=O)NCc3ccc(F)cc3)c(O)c(=O)n2CCN1Cc1nn[nH]n1 ; read by: microscopy ; result: >1 µM
CCOC(=O)c1[nH]c2ccc(Cl)cc2c1S(=O)(=O)CCCC(F)(F)F ; read by: microscopy ; result: >10 µM
Cc1ccc(S(=O)(=O)N2CCCN(Cc3ccccc3)CCCN(S(=O)(=O)c3ccc(C)cc3)CC(=O)C2)cc1 ; read by: trypan blue / propidium iodide ; result: 47.2 µM
CC1(C)c2nc(C(=O)NCc3ccc(F)cc3)c(O)c(=O)n2CCN1CC(=O)NCc1ccncc1 ; read by: microscopy ; result: >1 µM
O=C1NCc2c1ccnc2-c1cc(-c2cncc(Cl)c2)n(-c2ccc(F)c(Cl)c2)n1 ; read by: resazurin ; result: >3.3 µM
CC(=O)N(CC1CCCCC1)C1CN(C)CCn2c1nc(C(=O)NCc1ccc(F)cc1)c(O)c2=O ; read by: microscopy ; result: >1 µM
COc1cccc(-n2nc(-c3cccc4c3CNC4=O)cc2-c2ccnc(Cl)c2)c1 ; read by: resazurin ; result: >3.3 µM
C=C1CN(S(=O)(=O)c2ccc(C)cc2)CCCN(CC2CCCCC2)CCCN(S(=O)(=O)c2ccc(C)cc2)C1 ; read by: trypan blue / propidium iodide ; result: 29.3 µM
COC(=O)[C@H](Cc1ccccc1)NP(=O)(OC[C@@H]1C=C[C@H](n2ccc3c(N)ncnc32)C1)Oc1ccccc1 ; read by: MTS ; result: 42 µM
Cc1cc(CNC(=O)c2nc3n(c(=O)c2O)CCN(C(C)C)CC3N(C)C(=O)C(=O)N(C)C)ccc1F ; read by: microscopy ; result: >1 µM
NC[C@@H]1C[C@H](O)[C@H](n2cnc3c(N)ncnc32)O1 ; read by: trypan blue ; result: >500 µg/mL
COC(=O)[C@H](C)NP(=O)(OC[C@@H]1CC[C@H](n2cnc3c(N)ncnc32)C1)Oc1ccccc1 ; read by: MTS ; result: 6.5 µM
COc1cccc(-n2nc(-c3nccc4c3CNC4=O)cc2-c2ccnc(Cl)c2)c1 ; read by: resazurin ; result: >3.3 µM
Nc1ncnc2c1ccn2[C@H]1CC[C@@H](CO)C1 ; read by: MTS ; result: >500 µM
CC1(C)NS(=O)(=O)Cn2c1nc(C(=O)NCc1ccc(F)cc1)c(O)c2=O ; read by: microscopy ; result: >10 µM
C=C(C)[C@@H]1C[C@@H](COC(=O)c2ccccc2)[C@@]23OC45OC1(O4)[C@@H]2[C@@H]1O[C@]1(CO)[C@@H](O)[C@@]1(O)[C@H]3[C@H]([C@H](C)[C@@H]1OC(=O)c1ccccc1)[C@H](C)CCCCCC[C@H]5O ; read by: ATP / luminescence ; result: ≥1.29 µM
COC(=O)[C@H](C)NP(=O)(OC[C@H]1CC[C@@H](n2ccc3c(N)ncnc32)C1)Oc1ccccc1 ; read by: MTS ; result: >80 µM
CCOC(=O)c1[nH]c2ccc(Cl)cc2c1SC1CCCCC1 ; read by: microscopy ; result: >10 µM
Nc1ncnc2c1ncn2[C@@H]1O[C@H](CO)C[C@@H]1N ; read by: trypan blue ; result: >500 µg/mL
O=C1NCc2c1ccnc2-c1cc(-c2cc(F)cc(OC(F)(F)F)c2)n(-c2cccnc2)n1 ; read by: resazurin ; result: >3.3 µM
C=C1CN(S(=O)(=O)c2ccc(C)cc2)CCCN(C(C)CC)CCCN(S(=O)(=O)c2ccc(C)cc2)C1 ; read by: trypan blue / propidium iodide ; result: 42.6 µM
CCOC(=O)c1[nH]c2ccc(Cl)cc2c1SCCC1CC1 ; read by: microscopy ; result: >10 µM
CC(C)(C)OC(C(=O)O)c1c(-c2ccc3c(c2)CCCO3)ccc2ccccc12 ; read by: ATP ; result: >50 µM
C=C1CN(S(=O)(=O)c2ccc(C)cc2)CCCN(Cc2ccncc2)CCCN(S(=O)(=O)c2ccc(C)cc2)C1 ; read by: trypan blue / propidium iodide ; result: 32.4 µM
Nc1ncnc2c1ncn2[C@H]1C[C@H](N)[C@@H](CO)O1 ; read by: trypan blue ; result: 104 µg/mL
Cc1ccc(S(=O)(=O)N2CCCN(Cc3ccccc3)CCCN(S(=O)(=O)c3ccc(C)cc3)CC(CO)C2)cc1 ; read by: trypan blue / propidium iodide ; result: 41 µM
NC(=O)c1[nH]c2ccc(Cl)cc2c1S(=O)(=O)C1CC1 ; read by: microscopy ; result: >10 µM
Cc1nc2c(c(-c3ccc4c(c3)CCCO4)c1C(OC(C)(C)C)C(=O)O)CCCC2 ; read by: ATP ; result: >50 µM
C[C@H](NP(=O)(OC[C@@H]1C=C[C@H](n2ccc3c(N)ncnc32)C1)Oc1ccccc1)C(=O)OCc1ccccc1 ; read by: MTS ; result: 78 µM

A second listing of 4 rows from above:

SMILES,read by,result
CCOC(=O)c1[nH]c2ccc(Cl)cc2c1SCCC1CC1,microscopy,>10 µM
Cc1ccc(S(=O)(=O)N2CCCN(Cc3ccccc3)CCCN(S(=O)(=O)c3ccc(C)cc3)CC(CO)C2)cc1,trypan blue / propidium iodide,41 µM
C=C1CN(S(=O)(=O)c2ccc(C)cc2)CCCN(CC2CC2)CCCN(S(=O)(=O)c2ccc(C)cc2)C1,trypan blue / propidium iodide,36.1 µM
C=C(C)[C@@H]1C[C@@H](COC(=O)c2ccccc2)[C@@]23OC45OC1(O4)[C@@H]2[C@@H]1O[C@]1(CO)[C@@H](O)[C@@]1(O)[C@H]3[C@H]([C@H](C)[C@@H]1OC(=O)c1ccccc1)[C@H](C)CCCCCC[C@H]5O,ATP / luminescence,≥1.29 µM